Amino acid sequences for entries named in this document (tags omitted). Residues count along the entry.
UniProt P04757, 26-499 limits assumed: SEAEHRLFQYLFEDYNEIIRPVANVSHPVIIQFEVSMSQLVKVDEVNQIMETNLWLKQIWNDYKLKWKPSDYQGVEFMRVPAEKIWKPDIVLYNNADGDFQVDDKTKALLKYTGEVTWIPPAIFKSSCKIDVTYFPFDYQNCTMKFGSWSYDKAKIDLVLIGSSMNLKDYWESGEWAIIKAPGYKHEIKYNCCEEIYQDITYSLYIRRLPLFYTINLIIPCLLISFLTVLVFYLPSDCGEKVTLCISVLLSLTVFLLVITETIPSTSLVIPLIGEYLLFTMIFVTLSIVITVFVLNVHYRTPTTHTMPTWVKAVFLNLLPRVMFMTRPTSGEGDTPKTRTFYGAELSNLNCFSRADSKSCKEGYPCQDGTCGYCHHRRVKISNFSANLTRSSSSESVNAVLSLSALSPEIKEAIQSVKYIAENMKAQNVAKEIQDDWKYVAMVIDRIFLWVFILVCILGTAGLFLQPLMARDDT
UniProt P12390, 25-500 limits assumed: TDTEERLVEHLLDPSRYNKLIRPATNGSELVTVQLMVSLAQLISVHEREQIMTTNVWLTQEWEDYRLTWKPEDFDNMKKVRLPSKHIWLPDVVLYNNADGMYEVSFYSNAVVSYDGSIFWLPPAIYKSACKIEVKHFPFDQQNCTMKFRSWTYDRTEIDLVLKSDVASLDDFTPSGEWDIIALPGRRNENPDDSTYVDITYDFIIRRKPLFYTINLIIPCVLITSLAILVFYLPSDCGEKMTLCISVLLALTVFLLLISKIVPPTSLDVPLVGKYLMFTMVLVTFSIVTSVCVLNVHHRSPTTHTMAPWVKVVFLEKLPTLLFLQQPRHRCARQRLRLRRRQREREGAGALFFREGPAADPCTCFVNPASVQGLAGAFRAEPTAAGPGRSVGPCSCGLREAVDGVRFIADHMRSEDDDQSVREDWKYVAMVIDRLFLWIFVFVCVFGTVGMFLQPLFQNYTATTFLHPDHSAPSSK
UniProt P12392, 21-495 limits assumed: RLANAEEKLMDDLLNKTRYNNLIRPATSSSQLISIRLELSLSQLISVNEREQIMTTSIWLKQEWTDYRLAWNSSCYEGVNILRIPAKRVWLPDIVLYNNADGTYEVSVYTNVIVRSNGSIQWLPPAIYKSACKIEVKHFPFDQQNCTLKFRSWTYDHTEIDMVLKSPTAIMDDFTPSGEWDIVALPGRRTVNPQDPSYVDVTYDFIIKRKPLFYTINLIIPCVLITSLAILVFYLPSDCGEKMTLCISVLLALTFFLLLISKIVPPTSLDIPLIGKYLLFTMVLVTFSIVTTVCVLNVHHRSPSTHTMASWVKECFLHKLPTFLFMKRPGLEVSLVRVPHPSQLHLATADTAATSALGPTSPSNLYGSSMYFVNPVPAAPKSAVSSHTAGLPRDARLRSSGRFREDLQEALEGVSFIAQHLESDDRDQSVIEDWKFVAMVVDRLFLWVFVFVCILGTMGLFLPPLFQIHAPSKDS

According to publication PMC1865545, “Structure of α-conotoxin BuIA: influences of disulfide connectivity on structural dynamics” (2007):

Columns and labels:
α3β2 nAChR = α3β2 nAChR (Rattus norvegicus, UniProt P04757+P12390); assay: Inhibition of ACh-evoked current amplitude, two electrode voltage clamp, Xenopus oocytes, α3β2; conditions: read-out: IC50 for inhibition of ACh-evoked current, 100 μM ACh for 2 s, 5 min incubation of peptide, holding potential -80 mV, ND96 pH 7.4, 20 – 23°C, peak current, mean ± SEM, n = 4–7
α3β4 nAChR = α3β4 nAChR (Rattus norvegicus, UniProt P04757+P12392); assay: Inhibition of ACh-evoked current amplitude, two electrode voltage clamp, Xenopus oocytes, α3β4; conditions: read-out: IC50 for inhibition of ACh-evoked current, 100 μM ACh for 2 s, 5 min incubation of peptide, holding potential -80 mV, ND96 pH 7.4, 20 – 23°C, peak current, mean ± SEM, n = 4–7

In the case of CC(C)C[C@@H]1NC(=O)[C@H](C(C)C)NC(=O)[C@H](C)NC(=O)[C@@H]2CSSC[C@H](NC(=O)CN)C(=O)N[C@@H](CSSC[C@@H](C(N)=O)NC(=O)[C@H](Cc3ccc(O)cc3)NC1=O)C(=O)N[C@@H](CO)C(=O)N[C@@H]([C@@H](C)O)C(=O)N1CCC[C@H]1C(=O)N1CCC[C@H]1C(=O)N2, the pIC50 (α3β2 nAChR) was 8.32 and the pIC50 (α3β4 nAChR) was 7.23.

pIC50: −log10 of the molar value.
